The entries are a selection whose mix differs from that of the whole data set. Calls of active or inactive are those of the source. Rule as the data show it: active = activity change below about -65%; inconclusive = mostly about -30% to -63%; inactive = weaker than that.
% is scaled to controls: 0 for no effect and ±100 for the full control effect.

The test system of the assay is CtBP / adenovirus E1A interaction (AlphaScreen). In words: qHTS Assay for Inhibitors of the CtBP/E1A Interaction. The conditions noted are these: AlphaScreen GST-E1A/His-CtBP binding, 1536-well; active compounds read low. The gist of the method: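 AlphaScreen with 125 nM GST-E1A and 125 nM His-CtBP (5X stocks) in Tris pH 8.0, 300 mM NaCl, BSA, Tween 20, TCEP. Compounds preincubated 2 h at 37 deg C, then glutathione donor/nickel acceptor beads added for 1 h at 37 deg C in dark.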
On the technique in general: qHTS replaces the single test concentration by a dilution series.
Consider `O=C(NC(Sc1ccncn1)C(Cl)(Cl)Cl)c1ccccc1` (configuration not stated), for which the activity change is inactive: 12.6%.
Turning to `Oc1ccccc1CNc1ccccn1`, the activity change was inactive: 6.36%.
For `Cc1ccc(OP(=O)(Nc2nccs2)Oc2ccc(C)cc2)cc1`, the activity change is inactive: 2.1%.
Next, `COc1ccc(OP(C)(=O)Nc2ccccn2)cc1` (configuration not stated): inactive: 38.4%; `COc1ccccc1OP(=O)(Nc1ccc(C)cn1)Oc1ccccc1OC`: inactive: -17.2%.
Next, `Clc1ccc(Cl)c(NC2=NCC(CBr)S2)c1` (configuration not stated): inactive: 1.75%.
As to `CN(C)CCOC(=O)C(O)(c1ccccc1)C1CCCC1` (configuration not stated), the activity change is inactive: 11.2%.
Next, `CN1CCCC(OC(=O)C(c2ccccc2)c2ccccc2)C1` (configuration not stated): inactive: -4.5%.
Next, `Cc1ccc(N/C(=N/P(=O)(N2CCOCC2)N2CCOCC2)N2CCOCC2)cc1`: inactive: 12.2%; `COc1ccccc1OP(C)(=O)Nc1ccc(Br)cc1` (configuration not stated): inactive: 8.48%.
For `CN(C(=O)Cc1ccc(Cl)c(Cl)c1)[C@H]1CCCC[C@H]1N1CCCC1` the value was inactive: -4.53%; for `CC(=O)Nc1ccc(Oc2c([N+](=O)[O-])cc([N+](=O)[O-])cc2[N+](=O)[O-])cc1`, inactive: -1.48%.
Take `CC(=O)Nc1ccc([As](=O)(O)O)c(O)c1`: the activity change is inactive: 10.8%.
Next, `COC(=O)C1(C)COP(=O)(NCc2ccccc2)OC1` (configuration not stated): inactive: 1.78%; `N#C/C(=C\c1ccc(N(CCBr)CCBr)cc1)C(N)=O`: inactive: 16.7%.
For `CC(=O)c1ccc(N2CC2c2ccncc2)cc1` (configuration not stated), the activity change is inactive: 9.15%.
Consider `C[C@@H]1C=CCP(=O)(Oc2ccccc2)O1` (some centres not stated), for which the activity change was inactive: 3.41%.
Turning to `C[C@H]1OP(=O)(Oc2ccccc2)C[C@@H]2O[C@@H]21` (some centres not stated), the activity change is inactive: 3.73%.
As to `Cc1ccccc1CN(C)C(=O)COC(=O)C(O)(c1ccccc1)c1ccccc1`, the activity change was inactive: -14.6%.
For `O=C(OCCN1CCN(CCOCc2ccccc2)CC1)C(O)(c1ccccc1)c1ccccc1` the value was inactive: -6.39%.
Next, `CP(=O)(Nc1ccccc1F)Oc1ccccc1` (configuration not stated): inactive: 40.6%.
Take `CCc1cc(O)c([N+](=O)[O-])c(C)c1[N+](=O)[O-]`: the activity change was inactive: 6.35%.
For the molecule `CC(C)c1ccc(OP(C)(=O)Nc2ccc(SC(F)(F)F)cc2)cc1` (configuration not stated), the activity change is inactive: 1.97%.
Regarding `CC(C)(C)C(=O)NC(Sc1ccccc1)C(Cl)(Cl)Cl` (configuration not stated), the activity change was inactive: -0.628%.
Next, `O=P1(Nc2nc3ccc(Cl)cc3s2)COc2ccccc2O1` (configuration not stated): inactive: -5.48%; `CP(=O)(Nc1ccccc1)Oc1ccc(F)cc1` (configuration not stated): inactive: 3.52%.
For `CN(C)C(=O)Oc1noc2ccccc12` the value was inactive: 7.87%; for `CCCCCOc1ccc(NP(C)(=O)Oc2ccc(Cl)cc2Cl)cc1` (configuration not stated), inactive: -5.84%.
For `O=c1c2cc([N+](=O)[O-])ccc2[nH]c2c([N+](=O)[O-])cc([N+](=O)[O-])cc12` the value was inactive: -0.715%; for `Cc1ccccc1OP(=O)(Nc1ccccn1)Oc1ccccc1C`, inactive: -0.623%.
With `CC(NC(=O)COC(=O)C(O)(c1ccccc1)c1ccccc1)c1ccccc1` (configuration not stated), the activity change was inactive: 11.9%.
Next, `CC(=O)NC(SC(=S)N(CC(C)C)CC(C)C)C(Cl)(Cl)Cl` (configuration not stated): inactive: 5.95%; `Cc1c([N+](=O)[O-])cc([N+](=O)[O-])c(Br)c1[N+](=O)[O-]`: inactive: 3.73%; `COC(=O)c1cc2c(s1)N=C(c1ccccc1)N(C)P2(=O)N1CCOCC1` (configuration not stated): inactive: 3.99%.
For `CCN(CC)CCCOC(=O)C(O)(c1ccccc1)C1CCCCC1` (configuration not stated) the value was inactive: 1.67%.
`CCC(=O)N1C2C3N(C(=O)CC)C1C1N(C(=O)CC)C(C(N1C(=O)CC)N3C(=O)CC)N2C(=O)CC`: the activity change was inactive: 0.194%.
For `O=C(OC1CN2CCC1CC2)c1ccccc1` (configuration not stated) the value was inactive: -8.87%.
As to `CCOC(=O)c1ccc(NP(C)(=O)Oc2ccc(F)cc2)cc1` (configuration not stated), the activity change was inactive: 10.6%.
For `O=P1(N(CCCl)CCCl)OCCC2CCCCN21` (configuration not stated) the value was inactive: -1.44%.
On to `COc1ccc(OP(C)(=O)Nc2ccc(SC(F)(F)F)cc2)cc1` (configuration not stated), for which the activity change is inactive: 1.52%.
Next, `CCNC(=S)/N=C(\N)N[N+](=O)[O-]`: inactive: 14.2%.
Next, `Cc1ccc(NP(=O)(Oc2cccc(C)c2)Oc2cccc(C)c2)nc1`: inactive: 6.86%; `Nc1ccc([As](=O)(O)c2ccc([N+](=O)[O-])cc2)cc1`: inactive: 4%.
Next, `C(Cc1nn[nH]n1)Cc1nn[nH]n1`: inactive: 3.39%; `Cc1c(C(c2ccc3c(c2)OCO3)c2c(C)n(C)n(-c3ccccc3)c2=O)c(=O)n(-c2ccccc2)n1C.O=[N+]([O-])c1cc([N+](=O)[O-])c(O)c([N+](=O)[O-])c1`: inactive: 9.48%.
As for `O=C(OC1CN2CCC1CC2)c1cccc(Cl)c1` (configuration not stated), the activity change is inactive: 3.91%.
Consider `CC(=O)NC(SC(=S)N(C)C)C(Cl)(Cl)Cl` (configuration not stated), for which the activity change is inactive: -9.3%.
For `O=[N+]([O-])c1ccc(OP2(=O)COCCO2)cc1` (configuration not stated) the value was inactive: -1.7%.
Next, `O=[N+]([O-])c1ncn(CCn2cnc([N+](=O)[O-])n2)n1`: inactive: 4.53%; `Cc1cc(-c2cccc3ccccc23)c(C)cn1.O=[N+]([O-])c1cc([N+](=O)[O-])c(O)c([N+](=O)[O-])c1`: inactive: 3.39%; `O=[As](O)(c1ccccc1)c1ccc(O)cc1`: inactive: 16.5%.
Next, `C[C@H]1OP(=O)(Oc2ccccc2)[C@H](O)[C@H](O)[C@H]1N=[N+]=[N-]` (some centres not stated): inactive: 2.53%; `CN(C)CCOC(=O)C(O)(c1ccccc1)C1CCCCC1` (configuration not stated): inactive: -3.17%.
With `O=P(Nc1nc2ccccc2s1)(c1ccccc1)c1ccccc1`, the activity change was inactive: 0.121%.
In the case of `COc1ccc(NP(C)(=O)Oc2ccccc2OC)cc1` (configuration not stated), the activity change was inactive: 0.838%.
For `COc1ccc(N)c([N+](=O)[O-])c1[N+](=O)[O-]` the value was inactive: -5.21%.
For `COc1ccc(OP(C)(=O)Nc2cccc(Br)c2)cc1` (configuration not stated) the value was inactive: -0.822%; for `O=P(Nc1ccccn1)(c1ccc(Br)cc1)c1ccc(Br)cc1`, inactive: 0%.
Consider `CN(C)C1(CNC(=O)c2ccc(Cl)c(S(N)(=O)=O)c2)CCCCC1`, for which the activity change is inactive: 4.76%.
For `Cc1ccccc1NP(C)(=O)Nc1ccccc1C` the value was inactive: 22.1%; for `O=[N+]([O-])c1cc([N+](=O)[O-])c(C(F)(F)F)c([N+](=O)[O-])c1O`, inactive: 6.06%; for `CP(=O)(Nc1ccc2c(c1)OCCO2)Oc1ccccc1` (configuration not stated), inactive: -2.64%.
Next, `CCOP(C)(=S)SCC(=O)NC(C)(CC)C(=O)O` (configuration not stated): inactive: 7.73%; `c1nnnn1CCn1cnnn1`: inactive: 0.77%; `CP(=O)(Nc1ccc(SC(F)(F)F)cc1)Oc1ccc(F)cc1` (configuration not stated): inactive: 10.1%.
On to `CC(C)C(=O)NC(Sc1ccccc1)C(Cl)(Cl)Cl` (configuration not stated), for which the activity change is inactive: 1.01%.
For `O=P(Nc1nccs1)(c1ccccc1)c1ccccc1` the value was inactive: -0.658%.

The record behind these values is PubChem BioAssay AID651724 (National Center for Advancing Translational Sciences (NCATS), 2012).
